Primary screen of a compound library

The values are deposited in ChEMBL (CHEMBL3988442, “University of Dundee, Small-Polar-MMV Screening Library” (2021)).

A: 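Growth of Mycobacterium tuberculosis over 3 days (7H9 medium with glucose and tyloxapol); the read-out is not stated. Tested at 500 µM. Higher reads as more growth inhibition (inferred: compounds with an IC50 in retests scored well above the rest). Of about 18,000 compounds tested this way, about 1,400 (7.9%) reached 50% or more in at least one test.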
B: 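Growth of Mycobacterium tuberculosis over 4 days (cholesterol / DPPC medium with tyloxapol); the read-out is not stated. Concentration: 500 µM. Direction is inferred from retests: higher values go with more growth inhibition. Of about 18,000 compounds tested this way, about 900 (5%) reached 50% or more in at least one test.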

The filed quantity is “Percent Effect” (%). The controls that fix the scale are not given in the record; negative values are as filed. This is part of a subset picked to be rich in strong results. A dash means the value is not listed here; it may have been measured.

Compound	A	B
c1cnn(CCNCc2ccc3c(c2)CCO3)c1	-	4.725
COc1cccc(NC(=O)N2CCN(C3CC3)CC2)c1	-	14.65
NC(=O)C1(NC(=O)C2CCc3ccccc32)CCCC1 (stereo not drawn)	-	2.796
O=c1[nH]c2ccc(S(=O)(=O)CCO)cc2o1	-10.11	-
COC(C)(CNC(=O)[C@H]1CCCO1)C1CC1 (stereo partly drawn)	-	3.195
O=S(=O)(Cc1ccc(Cl)cc1)c1ccccn1	-	27.84
CC(=O)c1ccncn1	-1.313	-
O=C(NCCNCC1(O)CCNC1)c1ccccc1Cl (stereo not drawn)	12.22	-
COCC(C#N)NC(=O)CCNc1ccccc1 (stereo not drawn)	11.2	-
CCOC(=O)N1CCN(C(=O)c2ccccc2O)CC1	-	18.5
CN(C)c1ccc(CN)cc1F	18.48	-
Cc1ccc(OCC(=O)Nc2nnn(C)n2)cc1	57.71	83.28
COc1cc(OC)cc(C(=O)NCc2ccnn2C)c1	-	-23.24
O=C1CNc2cccc(F)c2N1	-	-107.2
COc1ccc2nc(SCN3CCCCC3=O)[nH]c2c1	36.16	-
CCC(CO)(CO)NCC(O)COCc1ccco1 (stereo not drawn)	19.36	-
Cn1cnc2cc(F)ccc21	-	2.112
CC(C)[C@H](N)C(=O)N1CCC(Oc2cccnc2)C1 (stereo partly drawn)	49.78	-
O=C(c1cccc2ncccc12)N1CCCC1	-3.396	-
CN(Cc1nnc[nH]1)S(=O)(=O)c1cc(F)cc(Cl)c1	27.42	-
CCOC(=O)N1CCC(NC(=O)c2ccsc2)CC1	67.05	41.81
Cc1ncc(CSC2CCN(C)C2=O)s1 (stereo not drawn)	-4.693	-
CCOC(C)C(=O)Nc1ncccc1F (stereo not drawn)	-	-11.89
CC(C)N(CC(F)F)C(=O)C(N)c1ccccc1 (stereo not drawn)	7.183	-

3 of the entries, repeated:

Compound,A,B
O=C(NCCNCC1(O)CCNC1)c1ccccc1Cl (stereo not drawn),12.22,-
CN(C)c1ccc(CN)cc1F,18.48,-
COC(C)(CNC(=O)[C@H]1CCCO1)C1CC1 (stereo partly drawn),-,3.195